Anti-infective test results gathered from many reports (values: NIAID ChemDB through PubChem).

Common to all: whole-cell or culture tests; agent: Punta Toro virus; method: cytopathic effect; endpoint: EC50

ECn: concentration that inhibits the pathogen or its effect by n%. An empty or dashed field is not shown. Lines come from different laboratories, so protocols vary.

O=c1[nH]n2c(-c3cn(-c4ccccc4)nc3-c3ccccc3)nnc2sc1=O ; cells: VERO ; value: >80 µg/mL
CC(Sc1ncnc2c1cnn2COCCO)C(N)=O ; cells: VERO ; value: >400 µg/mL
CC1(C)[C@@H](CO)CC[C@@]1(C)Cn1cnc2c(N)ncnc21 ; cells: VERO ; value: >400 µg/mL
O=c1cc(O)n([C@@H]2O[C@H](CO)C(O)C2O)c(=O)[nH]1 ; cells: VERO ; strain: Adames ; value: 664 µg/mL
CC1(C)[C@@H](CO)CC[C@@]1(C)Cn1ccc(=O)[nH]c1=O ; cells: VERO ; value: >400 µg/mL
Cc1nn2c(-c3cn(-c4ccccc4)nc3-c3ccccc3)nnc2s1 ; cells: VERO ; value: >3.2 µg/mL
CC(Sc1ncnc2c1cnn2COCC(O)CO)C(N)=O ; cells: VERO ; value: >400 µg/mL
CC1=Nn2c(nnc2-c2cn(-c3ccccc3)nc2-c2ccccc2)SC1 ; cells: VERO ; value: >16 µg/mL
CC1(C)[C@@H](CCO)C[C@H]1n1nnc2c(N)ncnc21 ; cells: VERO ; value: >100 µg/mL
NC(=O)CSc1ncnc2c1cnn2COCCO ; cells: VERO ; value: >400 µg/mL
CC(=O)OC[C@H]1O[C@@H](n2ncc(=O)[nH]c2=S)C(OC(C)=O)C1OC(C)=O ; cells: VERO ; strain: Adames ; value: 6.5 µg/mL
CC1(C)[C@@H](CO)CC[C@@]1(C)Cn1nnc2c(=O)[nH]cnc21 ; cells: VERO ; value: >400 µg/mL
O=c1[nH]c(=S)cnn1[C@@H]1O[C@H](CO)C(O)C1O ; cells: VERO ; strain: Adames ; value: 16.5 µg/mL
CCOC(=O)Sc1nnc(-c2cn(-c3ccccc3)nc2-c2ccccc2)n1N ; cells: VERO ; value: >80 µg/mL
CC1(C)[C@@H](CCO)C[C@H]1n1cnc2c(N)ncnc21 ; cells: VERO ; value: >400 µg/mL
O=C1CSc2nnc(-c3cn(-c4ccccc4)nc3-c3ccccc3)n2N1 ; cells: VERO ; value: >16 µg/mL
CC1(C)[C@@H](CCO)C[C@H]1n1cnc2c(=O)[nH]cnc21 ; cells: VERO ; value: >400 µg/mL
CC(C)CS[C@H]1C[C@@H](n2cnc3c(N)ncnc32)[C@H](O)[C@@H]1O ; cells: HeLa ; value: >80 µg/mL
OC[C@H]1O[C@@H](n2ncc(=S)[nH]c2=S)C(O)C1O ; cells: VERO ; strain: Adames ; value: 52 µg/mL
CCOC(=O)C1=CSc2nnc(-c3cn(-c4ccccc4)nc3-c3ccccc3)n2N=C1N ; cells: VERO ; value: >16 µg/mL
CC1(C)OC2C(O1)[C@@H](COS(=O)(=O)NC(=O)OC1O[C@H](COCc3ccccc3)[C@@H](OCc3ccccc3)[C@H](OCc3ccccc3)[C@H]1OCc1ccccc1)O[C@H]2n1ncc(=O)[nH]c1=O ; cells: VERO ; strain: Adames ; value: 54.1 µg/mL
c1ccc(-c2nn3c(-c4cn(-c5ccccc5)nc4-c4ccccc4)nnc3s2)cc1 ; cells: VERO ; value: >16 µg/mL

Repeating the final 2 entries:

structure	cells	strain	value
CC1(C)OC2C(O1)[C@@H](COS(=O)(=O)NC(=O)OC1O[C@H](COCc3ccccc3)[C@@H](OCc3ccccc3)[C@H](OCc3ccccc3)[C@H]1OCc1ccccc1)O[C@H]2n1ncc(=O)[nH]c1=O	VERO	Adames	54.1 µg/mL
c1ccc(-c2nn3c(-c4cn(-c5ccccc5)nc4-c4ccccc4)nnc3s2)cc1	VERO		>16 µg/mL